Compound potency records, mixed from different reports. Data source: NIAID ChemDB in PubChem.

All rows: toxicity to cultured cells; cells: A549; read-out: CC50

An empty or dashed field is not shown. Conditions beyond the fields shown may differ between rows. CCn: concentration that lowers growth or viability of the cells by n%.

compound | read by | result
COc1ccc(-c2noc(C3=CC4(CCN(CCO)CC4)c4ccccc43)n2)cc1 | resazurin | 2 µM
O=c1c2cccnc2[se]n1N(c1ccccc1)c1cc(Cl)ccn1 |  | 80 µg/mL
O=[N+]([O-])c1ccc(-c2n[nH]c(=S)s2)cc1 | MTT | >100 µg/mL
C1=C(c2nc(-c3ccsc3)no2)c2ccccc2C12CCN(CC1CCCO1)CC2 | resazurin | 12 µM
COc1cc([C@@H]2c3cc4c(cc3[C@H](OC(C)=O)[C@@H]3COC(=O)[C@@H]23)OCO4)cc(OC)c1OC |  | 0.55 µM
O=C1N(CC2CC2)c2ccccc2C12CCN(Cc1cccnc1)CC2 | resazurin | >50 µM
CCCNC(=O)Nc1ccccc1[Se][Se]c1ccccc1NC(=O)NCCC | MTT | 3 µg/mL
C[N+](C)(C)CCn1[se]c2ccccc2c1=O | visual reading | 156 µg/mL
Cc1ccc(-n2[se]c3ccccc3c2=O)nc1 |  | 200 µg/mL
COC(=O)[C@@H]1[C@H](c2cc(OC)c3nc4cc(C)c(C)cc4nc3c2)c2cc3c(cc2C2=NOC[C@@H]21)OCO3 |  | 1 µM
CC(C)NS(=O)(=O)c1nc(-c2ccc(Cl)cc2)n[nH]1 | MTT | >100 µg/mL
O=c1c2cccnc2[se]n1N(c1ccccc1)c1ccccc1 |  | 7.5 µg/mL
COC(=O)[C@@H]1[C@H](c2cc(OC)c3nc4ccccc4nc3c2)c2cc3c(cc2C2=NOC[C@@H]21)OCO3 |  | 10 µM
O=[N+]([O-])c1ccc(-c2nc(SCC3CC3)n[nH]2)cc1 | MTT | >100 µg/mL
COc1ccc(CN2C(=O)C3(CCN(CC4CCCO4)CC3)c3ccccc32)cc1 | resazurin | >50 µM
O=c1c2ccccc2[se]n1C1CCCCC1 | visual reading | 3 µg/mL
COC(=O)[C@@H]1[C@H](c2cc(OC)c3nccnc3c2)c2cc3c(cc2C2=NOC[C@@H]21)OCO3 |  | 2.8 µM
C1=C(c2nc(-c3cccnc3)no2)c2ccccc2C12CCN(CC1CCCO1)CC2 | resazurin | >100 µM
CCOC(Cn1[se]c2ccccc2c1=O)OCC | visual reading | 7.3 µg/mL
CCCNC(=S)Nc1ccccc1[Se][Se]c1ccccc1NC(=S)NCCC | MTT | 117 µg/mL
FC(F)(F)c1ccccc1-c1nc(=S)[nH][nH]1 | MTT | >100 µg/mL
COC1=CC([C@@H]2c3cc4c(cc3[C@H](OC(C)=O)[C@@H]3COC(=O)[C@H]32)OCO4)=CC(=O)C1=O |  | 0.59 µM
CCCN1[Se]c2ccccc2NC1=S | MTT | 117 µg/mL
Cn1[se]c2c(ccc[n+]2C)c1=O |  | 15.6 µg/mL
Cc1ccncc1-c1noc(C2=CC3(CCN(CC4CCCO4)CC3)c3ccccc32)n1 | resazurin | 31.5 µM
COC(=O)[C@H]1C2CON=C2c2cc3c(cc2[C@H]1c1cc(OC)c(OC)c(OC)c1)OCO3 |  | 5.7 µM
Cn1ccc(-c2noc(C3=CC4(CCN(CC5CCCO5)CC4)c4ccccc43)n2)n1 | resazurin | 68 µM
CC(=O)NS(=O)(=O)c1ccc(NC(=O)CCC[Se][Se]CCCC(=O)Nc2ccc(S(=O)(=O)NC(C)=O)cc2)cc1 | MTT | 234 µg/mL
CCCNC(=O)n1[se]c2ccccc2c1=O | visual reading | 9.8 µg/mL
CNC(=O)CN1CCC2(C=C(c3nc(-c4ccc(OC)cc4)no3)c3ccccc32)CC1 | resazurin | >100 µM